Experimental findings from PMC7863910, “A novel stress-inducible CmtR-ESX3-Zn^2+ regulatory pathway essential for survival of Mycobacterium bovis under oxidative stress” (The Journal of Biological Chemistry, 2020) are described below.

Data set [1] deals with T1, CmtR-C24S (UniProt P9WMI9).
T1 sequence (looked up): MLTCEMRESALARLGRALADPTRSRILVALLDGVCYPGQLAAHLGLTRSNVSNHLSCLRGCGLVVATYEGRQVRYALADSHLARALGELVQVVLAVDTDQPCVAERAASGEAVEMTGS
The experiment in a line: EMSA. As to conditions: recombinant protein; residues 1-118; protein details: His-tag (pET28a); probe letters rebuilt from the primers and the genome.

Data set [2] addresses T2, CmtR-C4S (UniProt P9WMI9).
T2 sequence (looked up): T1 sequence (looked up) with C4S, S24C
Nature of the data set: EMSA. As to conditions: recombinant protein; residues 1-118; protein details: His-tag (pET28a); probe letters rebuilt from the primers and the genome.

Where a chain is given by its changes, count along the chain named. Protein sequences can lack the tags named with them.

For the sequence “GATTCCCGCATCTCACACGTCAGCATAGATCAAATAGTACACCATATACTGGTATAACAGCAAGAGCTGAATTGTACATCCATAGCAGATATGATCGGCGCGCGTCACAAGCTTCCGGCCGCAGAGCCGCCAACTCACGATATCGTTAACCGATATCCCGAGCCGATAGCTGGCGGGCTCGGGTGGTGGCCAGCGGCGCTGCGACGAAAGGTGTGACCGTCATGAAACAGACACCACCGGCGGCCGTCGGCCGTCGTCACCTGCTCGAGATCTCAGCATCCGCAGCCGGTGTGATCGCGCTTTCGGCGTGTAGTGGGTCGCCGCCCGAGCCCGGCAAAGGCCGGCCCGACACAACCCCGGAACAGGAAGTCCC (double strand) [cmtRp]”, the binding result in data set [1] and in data set [2] was “binds” in each case.
